From publication PMC10668966
Several values for one entry are separate records, joined by “and”; a condition that tells them apart may be missing. Equal entries are not always repeated.

Tested on: CC(=O)N[C@H]1[C@@H](OP(=O)(O)OP(=O)(O)OC[C@H]2O[C@@H](n3ccc(=O)[nH]c3=O)[C@H](O)[C@@H]2O)O[C@H](CO)[C@@H](O)[C@@H]1O
Assay: purified protein
Settings: pH 7.0; 37.0 °C

Q: Which Km does the source give for (Mycobacterium tuberculosis H37Rv) here?
A: The Km was 25.4 ± 2.1 µM and 26.3 ± 1.9 µM.
